Results of unrelated studies side by side (data: NIAID ChemDB).

Percent inhibition refers to the dose given; in toxicity tests it is the harm to the cells. MIC bound comes from a single tested concentration. Blank or dashed fields: not listed here. ICn is the concentration giving n% inhibition. Lines come from different laboratories, so protocols vary. ECn: concentration that inhibits the pathogen or its effect by n%. A number after MIC or MFC names an inhibition level or a share of isolates.

SMILES	test	species	strain or isolate	cell line	protein	read by	read-out	dose	value
CC(O)CN1CCCc2ccccc21	culture	Mycobacterium tuberculosis	H37Rv				MIC		>100 µg/mL
COc1cc2c(cc1O)N=CC1CCC(O)N1C2=O	culture	Mycobacterium tuberculosis	H37Rv			BACTEC	MIC bound		≤12.5 µg/mL
Cc1ccc(-c2cncc(N3CCN(c4ccccc4F)CC3)n2)cc1	target	Cytomegalovirus			UL97 kinase		inhibition	10 µM	>15%
COc1cc(C[C@H](C)[C@H](C)Cc2ccc(O)c(O)c2)ccc1O	culture	Candida albicans	CCC 130-2000			broth dilution	MIC100		125 µg/mL
CCCCOC(=O)CCN1CCN(c2ccc(C)cc2)CC1	culture	Mycobacterium tuberculosis	H37Rv			resazurin	inhibition	6.25 µg/mL	1%
Fc1ccc(N2CCCCC2)c(NC(=S)c2ccncc2)c1	host protein				COT	kinase activity	inhibition	10 µM	7%
Cc1cc(-c2ccc(N=Nc3c(N)c(S(=O)(=O)O)cc4cc(S(=O)(=O)O)ccc34)c(C)c2)ccc1N=Nc1c(N)ccc2cc(S(=O)(=O)O)ccc12	culture	Rhinovirus		Human embryonic lung cells		cytopathic effect	inhibition	50 µg/mL	100%
CCOc1cc(C)cc(C)c1N(CC)C(=O)CCC(=O)O	culture	Mycobacterium tuberculosis	H37Rv				MIC		>100 µg/mL
O=S(=O)([O-])c1ccc2c(O)cc(S(=O)(=O)[O-])cc2c1	culture	Herpes simplex virus		Human amnion AV3 cells		cytopathic effect	inhibition	5 µg/mL	5%
CCN(CC)C(C)=O	culture	Mycobacterium tuberculosis	H37Rv				MIC		>100 µg/mL
Nc1c(S(=O)(=O)O)cc2cc(S(=O)(=O)O)cc(O)c2c1O	culture	Rhinovirus		Human embryonic lung cells		cytopathic effect	inhibition	50 µg/mL	33%
CCN(CC)CCCC(C)Nc1ncnc2cc(Cl)ccc12	culture	Mycobacterium tuberculosis	H37Rv				MIC		>100 µg/mL
O=C(Nc1ccccc1)OCCN=C1c2ccccc2C(Br)C(Br)c2ccccc21	culture	Mycobacterium tuberculosis	H37Rv			BACTEC	inhibition	12.5 µg/mL	28%
O=C(Nc1ccc2cc(S(=O)(=O)[O-])cc(S(=O)(=O)[O-])c2c1)c1ccccc1	culture	Adenovirus	TYPE 3	Human amnion AV3 cells		cytopathic effect	inhibition	50 µg/mL	0%
O=C(O)C(c1ccccc1)c1ccccc1	culture	Mycobacterium tuberculosis	H37Rv				MIC		100 µg/mL
Cc1cccc(-c2cncc(N3CCN(c4ccccc4)CC3)n2)c1	target	Cytomegalovirus			UL97 kinase		inhibition	10 µM	>15%
C#CC[C@@H](C(=O)N[C@H](/C=C/C(=O)OCC)C[C@@H]1CCNC1=O)n1cccc(NC(=O)c2cc(C)on2)c1=O	culture	Rhinovirus	Serotype Hanks	H1-HELA		cytopathic effect / XTT	inhibition	0.067 µM	90%
OCCN(CCO)CCO	culture	Mycobacterium tuberculosis	H37Rv				MIC		>100 µg/mL
Cc1cc(S(=O)(=O)O)c(NC(=O)C(=O)C2C=CCS2(=O)=O)cc1Cl	culture	Mycobacterium tuberculosis	H37Rv			BACTEC	inhibition	12.5 µg/mL	10%
c1ccc(CCCCc2ccccn2)cc1	culture	Mycobacterium tuberculosis	H37Rv				MIC		100 µg/mL
CCO/N=C/c1ccc(OCCC2CCN(c3ccc(C)nn3)CC2)cc1	culture	Rhinovirus	6669-CV39 (ICAM-1 receptor group 61)	KB		neutral red	EC50		0.073 µM
O=S(=O)([O-])c1cc(NS(=O)(=O)c2ccccc2)c2c(S(=O)(=O)[O-])cc(S(=O)(=O)[O-])cc2c1	culture	Adenovirus	TYPE 3	Human amnion AV3 cells		cytopathic effect	inhibition	5 µg/mL	0%
CN(C)c1ccc(-c2cncc(N3CCN(c4ccccc4)CC3)n2)cc1	target	Cytomegalovirus			UL97 kinase		inhibition	1 µM	<50%
C=CCc1ccc(OC)c(OC)c1	culture	Candida tropicalis	3177			turbidity	MIC90		345 µg/mL
NNC(=O)C(Cc1cnc[nH]1)NC(=O)CNC(=O)OCc1ccccc1	culture	Mycobacterium tuberculosis	H37Rv			BACTEC	inhibition	12.5 µg/mL	9%
COc1ccccc1N1CCN(c2cncc(-c3ccc(F)cc3)n2)CC1	target	Cytomegalovirus			UL97 kinase		IC50		<10 µM
O=C1c2ccccc2C(=O)c2c1nc1sccn21	culture	Mycobacterium tuberculosis	H37Rv			BACTEC	inhibition	12.5 µg/mL	96%
Nc1ccc2cc(S(=O)(=O)O)ccc2c1	culture	Mycobacterium tuberculosis	H37Rv				MIC		>100 µg/mL
COc1ccc2c(c1)c(=O)c1c(NCCN(C)C)ccc3nnn2c31	culture	Mycobacterium tuberculosis	H37Rv			BACTEC	MIC bound		≤12.5 µg/mL
Cc1ccc(C(=O)Nc2ccc(S(=O)(=O)O)c3cc(S(=O)(=O)O)cc(S(=O)(=O)O)c23)cc1NC(=O)c1cccc(NC(=O)Nc2cccc(C(=O)Nc3cc(C(=O)Nc4ccc(S(=O)(=O)O)c5cc(S(=O)(=O)O)cc(S(=O)(=O)O)c45)ccc3C)c2)c1	culture	Rhinovirus		Human amnion AV3 cells		cytopathic effect	inhibition	5 µg/mL	20%
O=C1C=C(Nc2nc(O)cc(=O)[nH]2)c2ccccc2C1=O	culture	Mycobacterium tuberculosis	H37Rv				MIC bound		>6.25 µg/mL
O=[N+]([O-])c1cccc(NC(=S)Nc2ccccc2)c1	culture	Mycobacterium tuberculosis	H37Rv				MIC		100 µg/mL
Cc1ccc(N2CCN(c3cncc(-c4cc(C)cc(C)c4)n3)CC2)cc1	target	Cytomegalovirus			UL97 kinase		IC50		<100 µM
CNC(=S)c1ccc(C(=O)N(C(C)C)C(C)C)nc1C(=O)N(C(C)C)C(C)C	culture	Mycobacterium tuberculosis	H37Rv			BACTEC	MIC bound		>6.25 µg/mL
CCCCN1C(=O)C=CC1=O	culture	Mycobacterium tuberculosis	H37Rv				MIC		>100 µg/mL
C/C=[N+](\NC(=O)CCCC(=O)N/[N+](=C\C)C1(O)Cc2c(O)c3c(c(O)c2C(OC2CC(N)C(O)C(C)O2)C1)C(=O)c1c(OC)cccc1C3=O)C1(O)Cc2c(O)c3c(c(O)c2C(OC2CC(N)C(O)C(C)O2)C1)C(=O)c1c(OC)cccc1C3=O	culture	Mycobacterium tuberculosis	H37Rv			BACTEC	MIC bound		>12.5 µg/mL
CCCCNc1ccc(Br)c2c1C(=O)c1c(Br)ccc(NCCCC)c1C2=O	culture	Mycobacterium tuberculosis	H37Rv				MIC		>100 µg/mL
COC(=O)C(Cc1c[nH]c2ccccc12)NC(=O)c1ccccc1NC(=O)OCc1ccccc1	culture	Mycobacterium tuberculosis	H37Rv			BACTEC	MIC bound		>12.5 µg/mL
Cn1c(=N)sc2ccccc21	culture	Mycobacterium tuberculosis	H37Rv				MIC		100 µg/mL
OCC1=C[C@@H](O)[C@@H]2C=CO[C@@H](O[C@@H]3O[C@H](CO)[C@@H](O)[C@H](O)[C@H]3O)[C@H]12	culture	Mycobacterium tuberculosis	H37Rv			BACTEC	MIC bound		>12.5 µg/mL
CCN(CC)Cc1cc(Br)ccc1O.Cl	culture	Mycobacterium tuberculosis	H37Rv				MIC		>100 µg/mL
CC1=Nc2ccccc2S/C1=C(/C)NNC(=O)C(N)=O	culture	Mycobacterium tuberculosis	H37Rv			BACTEC	MIC bound		>12.5 µg/mL
CC(=O)c1ccc(N2CCN(c3cncc(-c4csc5ccccc45)n3)CC2)cc1	target	Cytomegalovirus			UL97 kinase		inhibition	1 µM	<50%
C[C@@H]1CN(C(=O)CCOS(C)(=O)=O)[C@@H](C)CN1C(=O)CCOS(C)(=O)=O	culture	Mycobacterium tuberculosis	H37Rv			BACTEC	MIC bound		>12.5 µg/mL
O=C(O)COCc1ccccc1	culture	Mycobacterium tuberculosis	H37Rv				MIC		100 µg/mL
C=CCn1c(-c2ccc([N+](=O)[O-])cc2)cs/c1=N\C(P(=O)(O)O)P(=O)(O)O	culture	Mycobacterium tuberculosis	H37Rv			resazurin	MIC bound		>6.25 µg/mL
COc1cccc(N2CCN(c3cncc(-c4ccc(C)cc4)n3)CC2)c1	target	Cytomegalovirus			UL97 kinase		IC50		<10 µM
Cc1ccc([As](=O)(O)O)cc1[N+](=O)[O-]	culture	Mycobacterium tuberculosis	H37Rv				MIC		>100 µg/mL
CC(C)=CCC[C@](C)(O[C@@H]1O[C@H](CO[C@@H]2OC[C@H](O)[C@H](O)[C@H]2O)[C@@H](O)C(O)[C@H]1O)[C@H]1CC[C@]2(C)[C@@H]1[C@H](O)C[C@@H]1[C@@]3(C)CC[C@H](O[C@@H]4O[C@H](CO)[C@@H](O)[C@H](O)[C@H]4O[C@@H]4O[C@H](CO)[C@@H](O)[C@H](O)[C@H]4O)C(C)(C)[C@@H]3CC[C@]12C	culture	Mycobacterium tuberculosis	H37Rv			BACTEC	MIC		≥12.5 µg/mL
COc1cc(O)c([N+](=O)[O-])cc1S(=O)(=O)O	culture	Mycobacterium tuberculosis	H37Rv				MIC		>100 µg/mL
O=C(NCCO)c1cccc(-c2cncc(N3CCN(c4ccncc4)CC3)n2)c1	target	Cytomegalovirus			UL97 kinase		IC50		<100 µM
O=C(COc1ccc(Br)cc1Br)N1N=C(c2ccc([N+](=O)[O-])o2)CC1(O)c1ccccc1	culture	Mycobacterium tuberculosis	H37Rv			resazurin	inhibition	6.25 µg/mL	6%
CS(=O)(=O)Nc1ccc(C(=O)O)cc1	culture	Mycobacterium tuberculosis	H37Rv				MIC		>100 µg/mL
CCSC(SCC)[C@H](O)[C@H](O)[C@@H](O)[C@H](C)O	culture	Mycobacterium tuberculosis	H37Rv			resazurin	MIC bound		>6.25 µg/mL
CN(C)c1ccc(C(c2ccc(O)cc2)c2ccc(N(C)C)cc2)cc1	culture	Mycobacterium tuberculosis	H37Rv				MIC		>100 µg/mL
O=C(Nc1ncc([N+](=O)[O-])s1)c1cccc([N+](=O)[O-])c1	culture	Mycobacterium tuberculosis	H37Rv			resazurin	MIC		>6.25 µg/mL
O/N=C/c1c[nH]c2ccccc12	culture	Mycobacterium tuberculosis	H37Rv				MIC		>100 µg/mL

7 of the rows above, restated:

SMILES | test | species | strain or isolate | cell line | protein | read by | read-out | dose | value
COc1cc(O)c([N+](=O)[O-])cc1S(=O)(=O)O | culture | Mycobacterium tuberculosis | H37Rv |  |  |  | MIC |  | >100 µg/mL
CNC(=S)c1ccc(C(=O)N(C(C)C)C(C)C)nc1C(=O)N(C(C)C)C(C)C | culture | Mycobacterium tuberculosis | H37Rv |  |  | BACTEC | MIC bound |  | >6.25 µg/mL
C[C@@H]1CN(C(=O)CCOS(C)(=O)=O)[C@@H](C)CN1C(=O)CCOS(C)(=O)=O | culture | Mycobacterium tuberculosis | H37Rv |  |  | BACTEC | MIC bound |  | >12.5 µg/mL
COc1ccc2c(c1)c(=O)c1c(NCCN(C)C)ccc3nnn2c31 | culture | Mycobacterium tuberculosis | H37Rv |  |  | BACTEC | MIC bound |  | ≤12.5 µg/mL
Cn1c(=N)sc2ccccc21 | culture | Mycobacterium tuberculosis | H37Rv |  |  |  | MIC |  | 100 µg/mL
NNC(=O)C(Cc1cnc[nH]1)NC(=O)CNC(=O)OCc1ccccc1 | culture | Mycobacterium tuberculosis | H37Rv |  |  | BACTEC | inhibition | 12.5 µg/mL | 9%
OCC1=C[C@@H](O)[C@@H]2C=CO[C@@H](O[C@@H]3O[C@H](CO)[C@@H](O)[C@H](O)[C@H]3O)[C@H]12 | culture | Mycobacterium tuberculosis | H37Rv |  |  | BACTEC | MIC bound |  | >12.5 µg/mL